Results from paper PMC6882899 (Scientific Reports, 2019).

Chains of the proteins cited; added tags and fusions are not shown. Residues count along the entry.
UniProt Q5U3D9, 1-481: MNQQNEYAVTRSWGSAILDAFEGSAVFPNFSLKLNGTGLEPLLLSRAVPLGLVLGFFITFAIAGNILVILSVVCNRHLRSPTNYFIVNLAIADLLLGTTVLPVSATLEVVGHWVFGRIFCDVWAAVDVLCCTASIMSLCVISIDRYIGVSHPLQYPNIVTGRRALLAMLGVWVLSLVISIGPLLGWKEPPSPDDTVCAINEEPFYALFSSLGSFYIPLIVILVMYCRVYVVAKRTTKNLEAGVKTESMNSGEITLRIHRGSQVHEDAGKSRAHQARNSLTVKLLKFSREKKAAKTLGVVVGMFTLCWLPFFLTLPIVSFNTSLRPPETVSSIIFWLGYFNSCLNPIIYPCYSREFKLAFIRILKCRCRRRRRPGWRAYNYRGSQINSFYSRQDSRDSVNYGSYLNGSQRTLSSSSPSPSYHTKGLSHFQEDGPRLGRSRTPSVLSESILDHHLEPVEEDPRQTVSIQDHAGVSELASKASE
UniProt Q5U3D9, 1-481 E327D/S330F: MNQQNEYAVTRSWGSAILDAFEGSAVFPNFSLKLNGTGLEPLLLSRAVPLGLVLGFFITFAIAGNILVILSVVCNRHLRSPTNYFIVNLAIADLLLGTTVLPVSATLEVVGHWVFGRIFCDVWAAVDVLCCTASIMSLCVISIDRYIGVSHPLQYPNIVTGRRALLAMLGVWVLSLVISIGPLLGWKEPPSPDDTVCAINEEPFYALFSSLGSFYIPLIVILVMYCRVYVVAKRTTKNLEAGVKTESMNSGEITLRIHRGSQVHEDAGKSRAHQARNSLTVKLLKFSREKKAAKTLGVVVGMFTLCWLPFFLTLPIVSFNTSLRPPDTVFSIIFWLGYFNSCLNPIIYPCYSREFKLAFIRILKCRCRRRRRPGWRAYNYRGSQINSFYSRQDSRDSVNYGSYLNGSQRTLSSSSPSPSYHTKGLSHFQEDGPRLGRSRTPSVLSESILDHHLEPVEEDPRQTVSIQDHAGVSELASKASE
UniProt P18841, whole entry, looked up: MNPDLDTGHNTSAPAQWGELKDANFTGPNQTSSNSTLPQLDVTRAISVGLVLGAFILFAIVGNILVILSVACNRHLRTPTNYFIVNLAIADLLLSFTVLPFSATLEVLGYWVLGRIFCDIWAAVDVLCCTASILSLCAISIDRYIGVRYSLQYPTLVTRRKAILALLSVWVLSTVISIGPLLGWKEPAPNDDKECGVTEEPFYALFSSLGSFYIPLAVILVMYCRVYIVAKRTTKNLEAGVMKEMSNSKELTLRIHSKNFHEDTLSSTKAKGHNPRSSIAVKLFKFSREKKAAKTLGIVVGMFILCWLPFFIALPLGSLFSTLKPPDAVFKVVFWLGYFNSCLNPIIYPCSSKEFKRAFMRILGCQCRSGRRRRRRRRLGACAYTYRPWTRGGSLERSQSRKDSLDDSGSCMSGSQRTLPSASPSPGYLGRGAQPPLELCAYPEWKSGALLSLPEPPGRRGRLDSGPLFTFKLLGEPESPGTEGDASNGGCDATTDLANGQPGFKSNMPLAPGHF

Columns and labels:
[1] = tested on: 5-dpf zebrafish larvae
[2] = target: zebrafish WT α1BB-AR (Danio rerio, UniProt Q5U3D9); assay: IP-one HTRF functional assay; format: cell-based; conditions: read-out: IP-one functional assay IC50; inhibition of 10 µM NE-induced IP1 accumulation, transfected COS-1 cells, mean ± SEM (n = 6)
[3] = target: T1, Hamster α1B-AR (Mesocricetus auratus, UniProt P18841); assay: IP-one HTRF functional assay; conditions: read-out: IP-one functional assay IC50; inhibition of 1 µM NE-induced IP1 accumulation, transfected COS-1 cells, mean ± SEM (n = 3)
[4] = target: ZFα1BB-E327D/S330F-AR (Danio rerio, UniProt Q5U3D9, E327D/S330F); assay: IP-one HTRF functional assay
[5] = tested on: fish; conditions: cited from earlier work
[6] = target: T1, Hamster α1B-AR; assay: 3H-prazosin radioligand binding assay; conditions: read-out: Radioligand binding assay IC50; 0.5 nM 3H-prazosin, COS-1 membranes, 60 min room temperature, mean ± SEM (n = 3)
[7] = target: E327D/S330F-ZFα1BB-AR (Danio rerio, UniProt Q5U3D9, E327D/S330F); assay: 3H-prazosin radioligand binding assay; conditions: read-out: Radioligand binding assay IC50; 0.5 nM 3H-prazosin, COS-1 membranes, 60 min room temperature, mean ± SEM (n = 3)
[8] = target: WT ZF α1BB-AR (Danio rerio, UniProt Q5U3D9); assay: 3H-prazosin radioligand binding assay; conditions: read-out: Radioligand binding assay IC50; 0.5 nM 3H-prazosin, COS-1 membranes, 60 min room temperature, mean ± SEM (n = 3)

SMILES: CC[C@H](C)[C@@H]1NC(=O)[C@H](CC(C)C)NC(=O)[C@@H]2CSSC[C@@H](C(N)=O)NC(=O)[C@H](Cc3ccccc3)NC(=O)[C@H](CCCCN)NC(=O)[C@H](CCCCN)NC(=O)[C@H](Cc3c[nH]cn3)NC(=O)[C@H](CC(N)=O)NC(=O)[C@H](CCCNC(=N)N)NC(=O)[C@H](CCCNC(=N)N)NC(=O)[C@H](CSSC[C@H](NC(=O)[C@H](CCCNC(=N)N)NC(=O)[C@H](Cc3c[nH]c4ccccc34)NC(=O)[C@@H](N)CC(N)=O)C(=O)N2)NC(=O)[C@H](C)NC(=O)[C@@H]2CCCN2C1=O
- IC50 [1]: 1.34 µM

SMILES: CC[C@H](C)[C@@H]1NC(=O)[C@H](CC(C)C)NC(=O)[C@@H]2CSSC[C@@H](C(N)=O)NC(=O)[C@H](Cc3ccccc3)NC(=O)[C@H](CCCCN)NC(=O)[C@H](CCCCN)NC(=O)[C@H](Cc3c[nH]cn3)NC(=O)[C@H](CC(N)=O)NC(=O)[C@H](CCCNC(=N)N)NC(=O)[C@H](CCCNC(=N)N)NC(=O)[C@H](CSSC[C@H](NC(=O)[C@@H](N)CCCNC(=N)N)C(=O)N2)NC(=O)[C@H](C)NC(=O)[C@@H]2CCCN2C1=O
- IC50 [1]: 3.16 µM

SMILES: CC[C@H](C)[C@@H]1NC(=O)[C@H](CC(C)C)NC(=O)[C@@H]2CSSC[C@@H](C(N)=O)NC(=O)[C@H](Cc3ccccc3)NC(=O)[C@H](CCCCN)NC(=O)[C@H](CCCCN)NC(=O)[C@H](Cc3c[nH]cn3)NC(=O)[C@H](CC(N)=O)NC(=O)[C@H](CCCNC(=N)N)NC(=O)[C@H](CCCNC(=N)N)NC(=O)[C@H](CSSC[C@H](NC(=O)[C@H](CCCNC(=N)N)NC(=O)[C@H](Cc3c[nH]c4ccccc34)NC(=O)[C@H](CC(N)=O)NC(=O)[C@@H](N)Cc3ccccc3)C(=O)N2)NC(=O)[C@H](C)NC(=O)[C@@H]2CCCN2C1=O
- IC50 [2]: 15.3 µM
- EC50 [1]: 0.19 µM
- IC50 [1]: 0.19 µM
- IC50 [3]: 1.56 µM
- improvement in potency at E327D/S330F mutant compared with WT ZF receptor ([4]; IP-one IC50 ratio): 6 fold
- IC50 ([4]; read-out: IP-one functional assay IC50, inhibition of 10 µM NE-induced IP1 accumulation, transfected COS-1 cells, mean ± SEM (n = 4)): 2.61 µM
- effect of injection into fish, in words [5]: did not reveal a phenotype
- IC50 [6]: 0.00439 µM
- IC50 [7]: 0.0885 µM
- IC50 [8]: 3.2 µM

SMILES: CC[C@H](C)[C@@H]1NC(=O)[C@H](CC(C)C)NC(=O)[C@@H]2CSSC[C@@H](C(N)=O)NC(=O)[C@H](Cc3ccccc3)NC(=O)[C@H](CCCCN)NC(=O)[C@H](CCCCN)NC(=O)[C@H](Cc3c[nH]cn3)NC(=O)[C@H](CC(N)=O)NC(=O)[C@H](CCCNC(=N)N)NC(=O)[C@H](CCCNC(=N)N)NC(=O)[C@H](CSSC[C@H](NC(=O)[C@H](CCCNC(=N)N)NC(=O)[C@@H](N)Cc3c[nH]c4ccccc34)C(=O)N2)NC(=O)[C@H](C)NC(=O)[C@@H]2CCCN2C1=O
- IC50 [1]: 4.09 µM

SMILES: NC[C@H](O)c1ccc(O)c(O)c1 [NE, norepinephrine]
- EC50 ([4]; read-out: EC50, NE-activated signalling to IP1, transfected COS-1 cells, IP-one HTRF): 0.239 µM

SMILES: CC[C@H](C)[C@@H]1NC(=O)[C@H](CC(C)C)NC(=O)[C@@H]2CSSC[C@@H](C(N)=O)NC(=O)[C@H](Cc3ccccc3)NC(=O)[C@H](CCCCN)NC(=O)[C@H](CCCCN)NC(=O)[C@H](Cc3c[nH]cn3)NC(=O)[C@H](CC(N)=O)NC(=O)[C@H](CCCNC(=N)N)NC(=O)[C@H](CCCNC(=N)N)NC(=O)[C@H](CSSC[C@H](N)C(=O)N2)NC(=O)[C@H](C)NC(=O)[C@@H]2CCCN2C1=O
- IC50 [1]: > 10 µM

SMILES: N=C(N)NCCC[C@H](NC(=O)[C@H](Cc1c[nH]c2ccccc12)NC(=O)[C@H](CC(N)=O)NC(=O)[C@@H](N)Cc1ccccc1)C(=O)N[C@H]1CSSC[C@@H](C(N)=O)NC1=O
- IC50 [1]: > 10 µM
